Pooled drug test results. Numbers come from NIAID ChemDB, via PubChem.

All rows: tests in culture; species: Rhinovirus

Neighbouring rows are from separate reports. MIC50, MIC90 and the like: level of inhibition, or share of isolates inhibited. An empty or dashed field is not shown. ECn is the concentration giving n% inhibition of infection, replication or growth. Inhibition is in % at the dose shown (toxicity tests: loss of growth or viability).

compound,cells,measure,method,strain,tested at,value
O=S(=O)([O-])c1ccc(NS(=O)(=O)c2ccccc2)c2c(S(=O)(=O)[O-])cccc12,Human embryonic lung cells,inhibition,cytopathic effect,-,5 µg/mL,30%
Cc1cc(CCCCCOc2c(Cl)cc(C3=NCCO3)cc2Cl)on1,HeLa,EC50,plaque count,TYPE 5,-,>6.2 µg/mL
CN(C)c1nc(C(F)(F)F)nc2c1ncn2Cc1ccc(Cl)c(NC=O)c1,M-HELA,inhibition,plaque count,Serotype 5,8 µM,36%
Cc1cc(CCCCCOc2cc(Cl)c(-c3nnco3)c(Cl)c2)on1,-,MIC80,-,Serotype 2,-,0.41 µg/mL
O=C(Nc1ccc(S(=O)(=O)[O-])c2cccc(S(=O)(=O)[O-])c12)c1ccccc1,Human amnion AV3 cells,inhibition,cytopathic effect,-,50 µg/mL,5%
CCO/N=C/c1ccc(OCCC2CCN(c3ccc(Cl)nn3)CC2)cc1,KB,EC50,neutral red,6258-CV44 (ICAM-1 receptor group 64),-,>7.474 µM
CN(C)c1nc(C(F)(F)F)nc2c1ncn2Cc1ccc([N+](=O)[O-])cc1,M-HELA,inhibition,plaque count,Serotype 30,8 µM,28%
Cc1cc(CCCCCOc2ccc(-c3ncon3)cc2)on1,-,MIC80,-,serotype 2 1A 1B 6 14 21 22 15 25 30 50 67 89 86 41,-,2.56 µg/mL
CCN(c1cccc(F)c1)c1nc(C(F)(F)F)nc2c1ncn2Cc1cccc(F)c1,M-HELA,EC50,plaque count,Serotype 1B,-,17 µM
COc1ccc(Cn2cnc3c(N(C)C)nc(C(F)(F)F)nc32)cc1C,M-HELA,inhibition,plaque count,Serotype 21,8 µM,16%
O=S(=O)(O)c1ccc2ccc(S(=O)(=O)O)cc2c1,Human amnion AV3 cells,inhibition,cytopathic effect,-,50 µg/mL,0%
CN(C)c1nc(C(F)(F)F)nc2c1ncn2Cc1ccc(Cl)cc1Cl,M-HELA,inhibition,plaque count,Serotype 29,8 µM,15%
CC(=O)Nc1ccc(Cn2cnc3c(Nc4cccc(F)c4)nc(C(F)(F)F)nc32)cc1,M-HELA,EC50,plaque count,Serotype 5,-,>80 µM
Cc1ccc(Cn2cnc3c(N(C)C)nc(C(F)(F)F)nc32)cc1,M-HELA,EC50,plaque count,Serotype 21,-,>8 µM
Fc1cccc(Cn2cnc3c(Nc4cccc(F)c4)nc(C(F)(F)F)nc32)c1,M-HELA,EC50,plaque count,Serotype 4,-,2.6 µM
CCOC(=O)/C=C/[C@H](C[C@@H]1CCNC1=O)NC(=O)[C@@H](CC(=O)[C@@H](NC(=O)c1cc(C)on1)C(C)C)Cc1ccc(F)cc1,OHIO HELA-I,EC50,cytopathic effect / visual reading,Isolate 22,-,<0.01 µg/mL
O=C(Nc1c(S(=O)(=O)[O-])cc2cc(S(=O)(=O)[O-])cc(O)c2c1O)c1ccccc1,Human embryonic lung cells,inhibition,cytopathic effect,-,50 µg/mL,66%
Cc1cc(CCCCCOc2cc(Cl)c(-c3nnc(C)o3)c(Cl)c2)on1,-,MIC80,-,Serotype 1A,-,0.44 µg/mL
CN(C)c1nc(C(F)(F)F)nc2c1ncn2Cc1ccc(S(C)(=O)=O)cc1,M-HELA,inhibition,plaque count,Serotype 14,8 µM,16%

Repeating the final 2 entries:

compound	cells	measure	method	strain	tested at	value
Cc1cc(CCCCCOc2cc(Cl)c(-c3nnc(C)o3)c(Cl)c2)on1	-	MIC80	-	Serotype 1A	-	0.44 µg/mL
CN(C)c1nc(C(F)(F)F)nc2c1ncn2Cc1ccc(S(C)(=O)=O)cc1	M-HELA	inhibition	plaque count	Serotype 14	8 µM	16%